In US20260250325A1, “Antiviral Polypeptide Membrane Fusion Inhibitor, and Preparation Method and Application Thereof” (priority 2025, published 2026):
The star is where a group is joined. Succinyl(4-O-cholesteryl) = CC(C)CCC[C@@H](C)[C@H]1CC[C@H]2[C@@H]3CC=C4C[C@@H](OC(=O)CCC(=O)*)CC[C@]4(C)[C@H]3CC[C@]12C

system: RSV A long virus strain; assay type: cell-based; details: CC50/IC50, HEp-2 cells
Method in brief: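 HEp-2 cells (30000/well) infected with 100 PFU virus premixed 1 h with compound (8 concentrations, duplicate); after 2 h adsorption, cultured 1 day at 37 °C under 0.8% CMC overlay with compound. Plaques immunostained (RSV antibody, TrueBlue) and counted; IC50 and CC50 by non-linear fitting of % inhibition versus virus and cell controls.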

Compared with “Ac-FDEEISQVNEKINQSLAFIRKSDELLHNVNAGKSTTEAAAKK(Succinyl(4-O-cholesteryl))-NH2 [Compound 26]”, “Ac-LVKKIDEFDASISQVNEKINQSLEEIRKSDELLHNVGSGSGK(Succinyl(4-O-cholesteryl))-NH2 [Compound 29]” is lower in “Safety index (SI)” value: 7843 for the first, 778 for the second.

Going from “Ac-SLEQVNEKINQSLAFIRKSDEINQSDEEVNKSDELLEAAAKK-NH2 [Compound 50]” to “Ac-WDEFDASISQVNEKINQSLEEIRKSDELLHNVNAGLGSGSGK(Succinyl(4-O-cholesteryl))-NH2 [Compound 27]”, the “Safety index (SI)” value falls from 2160 to 717.

For “Ac-WDEFDASISQVNEKINQSLEEIRKSDELLHNVNALEAAAKK(Succinyl(4-O-cholesteryl))-NH2 [Compound 38]”, the “Safety index (SI)” value was 745.38.

For “Ac-FDFDEFDASISQVNEKINESLAFIRLAFIRKSDELLEAAAKK-NH2 [Compound 24]”, the “Safety index (SI)” value was >3.02.
